Results of unrelated studies side by side (data: NIAID ChemDB).

Common to all: tests in culture; species: Mycobacterium tuberculosis

Rows are shuffled and stem from different studies. Blank or dashed fields: not listed here. ECn is the concentration giving n% inhibition of infection, replication or growth. MIC bound comes from a single tested concentration. MIC50, MIC90 and the like: level of inhibition, or share of isolates inhibited. Inhibition is in % at the dose shown (toxicity tests: loss of growth or viability).

structure	strain or isolate	cell line	read by	endpoint	tested at	result
O=CNc1cccc(Cl)c1	H37Rv			MIC		100 µg/mL
CCOC(=O)C(C)c1nc2cc(F)c(N3CCOCC3)cc2[nH]c1=O	H37Rv		resazurin	inhibition	6.25 µg/mL	44%
O=c1cc(CNc2ccccc2)c2ccccc2[nH]1	H37Rv			MIC		>100 µg/mL
CCCCC(CC)CN1CN(CC(CC)CCCC)CC(C)(NCCNC2CCCc3ccccc32)C1				MIC		50 µM
COC(=O)c1cc(C)c(Br)c(OC)c1	H37Rv			MIC		>100 µg/mL
CC(CNCCNCCCCc1ccccc1)c1ccccc1				MIC		25 µM
CCOC(=O)Nc1cc(NCCc2ccc(S(=O)(=O)N(CC)CC)cc2)c2nccnc2n1	H37Rv			EC50		>12.5 µg/mL
CCCCCCCCCCCNCCNCCc1ccccc1F				MIC		50 µM
CC1=NN(C(=O)c2cccnc2)C(=O)C1N=Nc1ccc(S(=O)(=O)Nc2ccccn2)cc1	H37Rv		BACTEC	MIC bound		>12.8 µg/mL
O=C1c2ccccc2OC(c2ccccc2)C1O				inhibition	12.5 µg/mL	38%
CCCCCNCCNC12CC3CC(CC(C3)C1)C2				MIC		37.5 µM
N=C(N)c1ccc(N=Nc2c(O)ccc3cc4c(N=Nc5ccc(C(=N)N)cc5)c(O)ccc4cc23)cc1	H37Rv		resazurin	inhibition	6.25 µg/mL	8%
CO[C@H]1/C=C/O[C@@]2(C)Oc3c(C)c(O)c4c(O)c(c(/C=N/N5CCN(C/C=C/c6ccccc6)CC5)c(O)c4c3C2=O)NC(=O)/C(C)=C\C=C\[C@H](C)[C@H](O)[C@@H](C)[C@@H](O)[C@@H](C)[C@H](OC(C)=O)[C@@H]1C	3125 (rifampin-sensitive)			MIC		0.05 µg/mL
NC[C@H]1O[C@H](O[C@H]2[C@H](O)[C@@H](O[C@H]3O[C@H](CO)[C@@H](O)[C@H](N)[C@H]3O)[C@H](N)C[C@@H]2N)[C@H](O)[C@@H](O)[C@@H]1O	TN2793			MIC		32 µg/mL
O=C(c1ccccc1)N(c1ccccc1)c1cccc(O)c1	H37Rv			MIC		>100 µg/mL
C[C@@H]1CN(c2c(F)c(N)c3c(=O)c(C(=O)O)cn(C4CC4)c3c2F)C[C@H](C)N1	Drug-resistant			MIC90		0.125 µg/mL
CCOC(=O)Nc1cc2c(c(N)n1)N=C(c1ccccc1OC)CO2	H37Rv			EC50		>12.5 µg/mL
CCOC(=O)C(/C=N/c1[nH]ncc1C#N)=C(/C(=O)OCC)c1ccc(O)cc1	H37Rv		BACTEC	inhibition	12.5 µg/mL	0%
c1ccc(CCCCNCCNCc2cccc3ccccc23)cc1				MIC		25 µM
c1ccc(C(CCNCCNC2CCCCCCC2)c2ccccc2)cc1				MIC		6.25 µM
COc1cccc(F)c1N.Cl	H37Rv			MIC		>100 µg/mL
CC[C@H]1OC(=O)[C@H](C)[C@@H](O[C@H]2C[C@@](C)(OC)[C@@H](O)[C@H](C)O2)[C@H](C)[C@@H](O[C@@H]2O[C@H](C)C[C@H](N(C)C)[C@H]2O)[C@](C)(O)C[C@@H](C)C(=O)[C@H](C)[C@@H](O)[C@]1(C)O	ATCC 35830			MBC		>8 µg/mL
NCC(=O)NCC(=O)O	H37Rv			MIC		>100 µg/mL
Cc1c(N=Nc2ccc(Br)cc2)c(-c2ccccc2)nn1C(=S)S	ETA-R			MIC		12.5 µg/mL
CCOC(=O)Nc1cc2[nH]c(-c3cc(OC)c(OC)c(OC)c3)nc2c(N(CCc2ccccc2)Cc2ccccc2)n1	H37Rv			EC50		<12.5 µg/mL
NS(=O)(=O)c1ccc2ccccc2c1	H37Rv			MIC		>100 µg/mL
O=C1CCCCCN1C(=O)c1ccccc1	H37Rv		BACTEC	inhibition	12.5 µg/mL	12%
CCCCCCCCCCC[n+]1ccccc1	H37Rv			MIC		>100 µg/mL
COC1=NS(=O)(=O)N=C(C)O1	H37Rv		BACTEC	inhibition	12.5 µg/mL	16%
COc1ccc(OC)c(CCNCCNCC2(O)CCCCC2)c1				MIC		12.5 µM
Cl.Nc1ccc(C(=O)NC(C(=O)O)c2ccccc2)cc1	H37Rv			MIC		>100 µg/mL
CO[C@H]1/C=C/O[C@@]2(C)Oc3c(C)c(O)c4c(O)c(c(/C=N/N5CCN(C)CC5)c(O)c4c3C2=O)NC(=O)/C(C)=C\C=C\[C@H](C)[C@H](O)[C@@H](C)[C@@H](O)[C@@H](C)[C@H](OC(C)=O)[C@@H]1C	TN798			MIC		>32 µg/mL
CCCCC(CC)CN1CN(CC(CC)CCCC)CC(C)(NCCNCCCOCC)C1				MIC		12.5 µM
CC(=O)Nc1ccc(/C=N/NC(N)=S)cc1	H37Rv			MIC		3.12 µg/mL
CCN(CC)CC[n+]1ccc2c(C)c3[nH]c4ccc(O)cc4c3c(C)c2c1.[Cl][Pt-2]([Cl])([Cl])[Cl].[H+]	H37Rv		resazurin	inhibition	6.25 µg/mL	90%
CCOC(=O)Nc1cc(NC(c2ccccc2)c2ccccc2)c(N)c(N)n1	H37Rv			EC50		>12.5 µg/mL
O=C1NC(=O)C(Cl)=C1Cl	H37Rv			MIC		>100 µg/mL
O=C1C=CC2=C3c4cc(O)c(O)cc4CC3(O)COC2=C1O	H37Rv		BACTEC	MIC		≥128 µg/mL
Cc1ccc(S(=O)(=O)Nc2ccc(N)cc2)cc1	H37Rv			MIC		>100 µg/mL
CN(C)c1ccc(/C=C2\N=C(c3ccc([N+](=O)[O-])cc3)OC2=O)cc1	H37Rv		BACTEC	inhibition	12.5 µg/mL	6%
CSC(=N)N.O=S(=O)(O)O	H37Rv			MIC		>100 µg/mL
CO[C@H]1/C=C/O[C@@]2(C)Oc3c(C)c(O)c4c(O)c(c(C5SCCS5)c(O)c4c3C2=O)NC(=O)/C(C)=C\C=C\[C@H](C)[C@@H]2OC(C)(C)O[C@H]([C@@H](C)[C@H](O)[C@@H]1C)[C@@H]2C	H37Rv	VERO	BACTEC	MIC		12.5 µg/mL
NC1CCN(c2nc3c(cc2F)c(=O)c(C(=O)O)cn3-c2ccc(F)cc2F)C1	ATCC 35823			MBC		>8 µg/mL
CCCCCCCCCCCNCCNCc1ccc(OC)c(OC)c1				MIC		50 µM
O=C1C[C@@H](c2ccc(O)cc2)Oc2c1c(O)cc(O[C@@H]1O[C@H](CO)[C@@H](O)[C@H](O)[C@H]1O)c2[C@H]1C(=O)c2c(O)cc(O)cc2O[C@@H]1c1ccc(O)cc1				inhibition	12.5 µg/mL	0%
CC1(C)[C@H]2CC[C@@H](CNCCNCCCCc3ccccc3)[C@@H]1C2				MIC		50 µM
CCCCC(CC)CN1CN(CC(CC)CCCC)CC(C)(NCCN[C@H](CC)CO)C1				MIC		25 µM
CC(=O)Nc1ccc(C(=O)C(O)c2ccc(NC(C)=O)cc2)cc1	H37Rv			MIC		>100 µg/mL
CC[C@H]1OC(=O)[C@H](C)[C@@H](O[C@H]2C[C@@](C)(OC)[C@@H](O)[C@H](C)O2)[C@H](C)[C@@H](O[C@@H]2O[C@H](C)C[C@H](N(C)C)[C@H]2O)[C@](C)(O)C[C@@H](C)CN(C)[C@H](C)[C@@H](O)[C@]1(C)O	H37Rv			MIC		>8 µg/mL
O=S(=O)([O-])c1cc2cc(S(=O)(=O)[O-])c(N=Nc3ccc(S(=O)(=O)[O-])c4ccccc34)cc2cc1N=Nc1cccc2ncccc12.[Na+].[Na+].[Na+]	H37Rv			MIC		>100 µg/mL
O=C1CC(c2ccc(O)c(O)c2)Oc2c1c(O)cc(O[C@@H]1O[C@H](CO)[C@@H](O)[C@H](O)[C@H]1O)c2C1C(=O)c2c(O)cc(O)cc2OC1c1ccc(O)cc1	H37Rv			inhibition	12.5 µg/mL	0%
C=CCn1c(=O)c(C(=O)Nc2nc(C34CC5CC(CC(C5)C3)C4)cs2)c(O)c2ccccc21	H37Rv	VERO		MIC		3.13 µg/mL
CC(C)CC(C)NCCNCCCCc1ccccc1				MIC		50 µM
CCOC(=O)Nc1cc(NC(C)CCCN(CC)CC)c2ncc(-c3ccc(Cl)c(Cl)c3)nc2n1	H37Rv	VERO		EC50		<12.5 µg/mL
CC(=O)Nc1cc(C)ccc1C(C)C	H37Rv			MIC		>100 µg/mL
CC(C1=C(O)c2ccccc2C(=O)C1=O)C1=C(O)c2ccccc2C(=O)C1=O	H37Rv		BACTEC	MIC		≥12.8 µg/mL
CCOC(=O)Nc1cc(N)c([N+](=O)[O-])c(NC/C(CNc2ccc(C(=O)OCC)cc2)=N\O)n1	H37Rv			EC50		>12.5 µg/mL
O=C(O)c1ccc2c(c1)C(=O)CC(c1ccccc1)O2	H37Rv			inhibition	12.5 µg/mL	0%
O=C1C=CC(=NC2=C(Cl)C(=O)c3ccccc3C2=O)C=C1	H37Rv		BACTEC	MIC bound		≤12.5 µg/mL
NNC(=O)c1csc(CCCOc2ccccc2)c1NC(=O)c1ccccc1	H37Rv			MIC		>100 µg/mL
C=C1C(=O)O[C@@H]2C[C@@]3(C)C=CC(=O)C(=C)[C@@H]3C[C@H]12	CS-R			MIC		6.3 µg/mL
CCCCC(CC)CN1CN(CC(CC)CCCC)CC(C)(NCCNCCc2ccc(OC)cc2)C1				MIC		12.5 µM
CC(=O)Oc1ccc([C@H]2Oc3cc(OC(C)=O)cc(OC(C)=O)c3C(=O)[C@@H]2c2c(OC(C)=O)cc(OC(C)=O)c3c(=O)cc(-c4ccc(OC(C)=O)c(OC(C)=O)c4)oc23)cc1	H37Rv			EC50		>12.5 µg/mL
NC(=O)c1cc(O)ccc1O	H37Rv			MIC		100 µg/mL
CC1(Cl)C(=O)NN=C1c1ccc([N+](=O)[O-])cc1	H37Rv		BACTEC	MIC bound		>12.5 µg/mL
CCOC(=O)CO	H37Rv			MIC		>100 µg/mL
CCOC(=O)C(C)c1nc2cc(N3CCN(C)CC3)c(F)cc2[nH]c1=O	H37Rv		resazurin	inhibition	6.25 µg/mL	47%
COc1ccc(C2CC(=O)c3cc(F)ccc3O2)cc1	H37Rv			EC50		>12.5 µg/mL
C[C@@H]1[C@H]2C[C@@H](C[C@H]1NCCNCCC(c1ccccc1)c1ccccc1)C2(C)C				MIC		12.5 µM
O=[n+]1c2ccccc2n([O-])c2ccccc21.[Cl][Cu][Cl]	PZA-R			MIC		1.6 µg/mL
CO[C@H]1/C=C/O[C@@]2(C)Oc3c(C)c(O)c4c(=O)c(c5oc6cc(N7CCN(CC(C)C)CC7)cc(=O)c6nc5c4c3=C2O)NC(=O)/C(C)=C\C=C\[C@H](C)[C@H](O)[C@@H](C)[C@@H](O)[C@@H](C)[C@H](OC(C)=O)[C@@H]1C	2227 (rifampin-resistant)			MIC		0.05 µg/mL
O=C(O)C1C2CC3C(OC(=O)C31)C2NS(=O)(=O)c1ccccc1	H37Rv		BACTEC	MIC bound		>12.5 µg/mL
NCC[C@H](O)C(=O)N[C@@H]1C[C@H](N)[C@@H](O[C@H]2O[C@H](CN)[C@@H](O)[C@H](O)[C@H]2O)[C@H](O)[C@H]1O[C@H]1O[C@H](CO)[C@@H](O)[C@H](N)[C@H]1O	MDR24		broth dilution / resazurin	MIC		2 µg/mL
CC(=O)OCCn1c2nc(=O)[nH]c(=O)c-2nc2cc(C)c(C)cc21	H37Rv		BACTEC	inhibition	6.25 µg/mL	0%
c1ccc(CCCCNCCNC2CCc3ccccc32)cc1				MIC		50 µM

A second listing of 6 rows from above:

structure,strain or isolate,cell line,read by,endpoint,tested at,result
O=C1CCCCCN1C(=O)c1ccccc1,H37Rv,,BACTEC,inhibition,12.5 µg/mL,12%
CC(C1=C(O)c2ccccc2C(=O)C1=O)C1=C(O)c2ccccc2C(=O)C1=O,H37Rv,,BACTEC,MIC,,≥12.8 µg/mL
Cc1ccc(S(=O)(=O)Nc2ccc(N)cc2)cc1,H37Rv,,,MIC,,>100 µg/mL
CC(=O)Oc1ccc([C@H]2Oc3cc(OC(C)=O)cc(OC(C)=O)c3C(=O)[C@@H]2c2c(OC(C)=O)cc(OC(C)=O)c3c(=O)cc(-c4ccc(OC(C)=O)c(OC(C)=O)c4)oc23)cc1,H37Rv,,,EC50,,>12.5 µg/mL
CC1(C)[C@H]2CC[C@@H](CNCCNCCCCc3ccccc3)[C@@H]1C2,,,,MIC,,50 µM
NCC[C@H](O)C(=O)N[C@@H]1C[C@H](N)[C@@H](O[C@H]2O[C@H](CN)[C@@H](O)[C@H](O)[C@H]2O)[C@H](O)[C@H]1O[C@H]1O[C@H](CO)[C@@H](O)[C@H](N)[C@H]1O,MDR24,,broth dilution / resazurin,MIC,,2 µg/mL